Data from US20110046349 (published 2011).

Assays:
[1] = general procedure: hybrid (solid and solution phase) peptide synthesis; CTC resin (fragments with C-terminal acid); Sieber amide resin (fragments with C-terminal amide); DIC/HOBt hydrate on solid phase (PyBOP, TOTU, TCTU for some couplings); TBTU, TO; conditions: for step yield: recovery yield
[2] = general procedure: hybrid (solid and solution phase) peptide synthesis; CTC resin; DIC/HOBt hydrate on solid phase (PyBOP, TOTU, TCTU for some couplings); TBTU, TO; conditions: whole synthesis
[3] = general procedure: hybrid (solid and solution phase) peptide synthesis; Sieber amide resin; DIC/HOBt hydrate on solid phase (PyBOP, TOTU, TCTU for some couplings); TBTU, TO; conditions: whole synthesis
[4] = late stage modification step, HPLC

Fmoc-Phe-Ile-Glu(OtBu)-^25Trp(Boc)-Leu-Lys(Boc)-Asn(Trt)-Gly-^30Gly-Pro-Ser(tBu)-Ser(tBu)-Gly-^35Ala-Pro-Pro-Pro-Ser(tBu)-NH2
crude purity (method not given) ([1]; coupling step, HPLC): 89%
step yield ([1]; coupling step): 100%

Fmoc-^22Phe-Ile-Glu(tBu)-Trp(Boc)-Leu-^27Lys(Boc)-Asn(Trt)-Gly-Gly-Pro-^32Ser(tBu)-Ser(tBu)-Gly-Ala-^36Pro-Pro-Pro-^39Ser(tBu)-NH2
crude purity (method not given) ([1]; coupling step, HPLC, run 1): 77.7%
crude purity (method not given) ([1]; coupling step, HPLC, run 2): 89.5%
step yield ([1]; coupling step): 99%

Fmoc-^26Leu-Lys(Boc)-Asn(Trt)-^29Gly-Gly-Pro-Ser(tBu)-Ser(tBu)-^34Gly-Ala-Pro-Pro-^38Pro-OH
crude purity (method not given) ([2]; HPLC): 93.4%

Fmoc-^27Lys(Boc)-Asn(Trt)-Gly-Gly-^31Pro-Ser(tBu)-Ser(tBu)-Gly-^35Ala-Pro-Pro-Pro-^39Ser(tBu)-NH2
crude purity (method not given) ([1]; coupling step, HPLC): 89.92%
step yield ([1]; coupling step): 85%

Fmoc-^27Lys(Boc)-Asn(Trt)-^29Gly-Gly-Pro-Ser(tBu)-Ser(tBu)-^34Gly-Ala-Pro-Pro-^38Pro-OH
crude purity (method not given) ([1]; whole synthesis, HPLC): 73.35%

Fmoc-^30Gly-Pro-Ser(tBu)-Ser(tBu)-Gly-^35Ala-Pro-Pro-Pro-OH
crude mass ([2]; scale 19.9 mol): 23.2 kg
crude purity (method not given) ([1]; whole synthesis, HPLC): 97%

Fmoc-^30Gly-Pro-Ser(tBu)-Ser(tBu)-Gly-^35Ala-Pro-Pro-Pro-Ser(tBu)-NH2
crude purity (method not given) ([1]; coupling step, HPLC): 97%
step yield ([1]; coupling step): 92%
crude purity (method not given) ([1]; whole synthesis, HPLC): 78%
crude yield ([1]; whole synthesis, recovery yield based on target batch size of 6 mmol): 60%
crude mass ([3]; scale 6 mmol): 4.6 g

Fmoc-^31Pro-Ser(tBu)-Ser(tBu)-Gly-^35Ala-Pro-Pro-Pro-^39Ser(tBu)-NH2
crude purity (method not given) ([1]; coupling step, HPLC): 81%

Fmoc-^31Pro-Ser(tBu)-Ser(tBu)-Gly-^35Ala-Pro-Pro-^38Pro-OH
crude purity (method not given) ([1]; whole synthesis, HPLC): 91.67%

Fmoc-^32Ser(tBu)-Ser(tBu)-Gly-^35Ala-Pro-Pro-Pro-^39Ser(tBu)-NH2
crude purity (method not given) ([1]; coupling step, HPLC): 100%
step yield ([1]; coupling step): 82%

H-Phe-Ile-Glu(OtBu)-^25Trp(Boc)-Leu-Lys(Boc)-Asn(Trt)-Gly-^30Gly-Pro-Ser(tBu)-Ser(tBu)-Gly-^35Ala-Pro-Pro-Pro-Ser(tBu)-NH2
crude HPLC purity ([1]; coupling step, HPLC): 88%
step yield ([1]; coupling step): 81%
crude purity (method not given) [1, 4]: 87%
step yield ([1]; late stage modification step): 100%

H-^27Lys(Boc)-Asn(Trt)-Gly-Gly-^31Pro-Ser(tBu)-Ser(tBu)-Gly-^35Ala-Pro-Pro-Pro-^39Ser(tBu)-NH2
crude purity (method not given) [1, 4]: 84.79%

H-^30Gly-Pro-Ser(tBu)-Ser(tBu)-Gly-^35Ala-Pro-Pro-Pro-Ser(tBu)-NH2
crude purity (method not given) [1, 4]: 91%
step yield ([1]; late stage modification step): 99%
crude purity (method not given) ([1]; whole synthesis, HPLC): 93%
crude yield ([1]; whole synthesis, recovery yield based on target batch size of 4 mmol): 60%
crude mass ([3]; scale 4 mmol): 3.3 g

H-^31Pro-Ser(tBu)-Ser(tBu)-Gly-^35Ala-Pro-Pro-Pro-^39Ser(tBu)-NH2
crude purity (method not given) [1, 4]: 95.0%
step yield ([1]; late stage modification step): 99%

H-^32Ser(tBu)-Ser(tBu)-Gly-^35Ala-Pro-Pro-Pro-^39Ser(tBu)-NH2
crude purity (method not given) [1, 4]: 100%
